Assay results: patent publication US20130295010A1, “HER2 BINDING PEPTIDES LABELLED WITH A 18F - CONTAINING ORGANOSILICON COMPOUND” (priority 2010, published 2013)

Legend:
[1] = test system: target-expressing SKOV3 tumors; details: mouse, in vivo
[2] = Stability of purified, formulated product at room temperature (HPLC); format: physicochemical; details: formulated in Dulbecco's phosphate buffered saline pH 6-6.5, room temperature, RCP by HPLC

Row | Substance | Tumor: blood ratio [1] | time found to be stable [2]
1 | Z00477 (SEQ. ID No. 3) His6 (SEQ ID NO: 7)tagged: His6-tagged Z00477 polypeptide labeled with the fac-[99mTc(CO)3]+ core | more than 8 | 
2 | ^67Ga-NOTA Z00477 (SEQ. ID No. 3): Z00477 polypeptide conjugated to Mal-NOTA chelator and labeled with 67Ga |  | at least 2 hr
